According to EP0706514B1, “COMPOUNDS AND METHODS FOR INHIBITION OF HIV AND RELATED VIRUSES” (MEDIVIR AB, priority 1993, dated 1995):
Where “and” joins values, the source holds several entries; their conditions need not be identical. Equal entries are not always repeated.

Target: recombinant HIV-RT (Human immunodeficiency virus type 1 group M subtype B, UniProt P04585)
Conditions: Test I

**Q.** With CCOc1ccc(F)c([C@@H]2C[C@@H]2NC(=O)Nc2ccc(Cl)cn2)c1Cl (relative stereo) as the molecule, how does the IC50 read?
**A.** The IC50 was 1.1 ng/mL and 2 ng/mL.
